{"source": "PubChem BioAssay AID624099, ICCB-Longwood | 2012", "assay": "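Knock-downs relieving repression by E2 of an HPV18 LCR luciferase reporter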 (primary screen)", "system": "human C33A cervical carcinoma cells (HPV-negative) stably expressing BPV1 E2 and an HPV18 LCR luciferase reporter", "reagent": "siRNA pool against human genes, 40 nM", "duration": "72 h", "read-out": "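HPV18 LCR reporter light per well, converted to plate-wise z-scores that exclude control wells, and averaged over triplicate plates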", "scale": "mean z-score and z-score: higher = stronger reporter signal, weaker E2 silencing", "call rule": "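Hit if mean z-score reaches 2 and two or more of three replicate z-scores also reach 2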", "note": "The whole screen tested about 21,000 reagents; shown is an unselected part. Over the whole deposit, 497 (2.4%) were called active. 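Higher z means weaker E2 silencing; only reporter increases were scored, and knock-downs that hurt cell survival may mask genuine repressor factors.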 A number with no mark means an inactive call."}
{"gene symbol": "LRP2 (GeneID 4036)", "mean z-score": 0.07, "z-score, replicate A": -0.16, "z-score, replicate B": 0.31, "z-score, replicate C": 0.06}
{"gene symbol": "LRRD1 (GeneID 401387)", "mean z-score": -0.58, "z-score, replicate A": -0.49, "z-score, replicate C": -0.68}
{"gene symbol": "IMPACT (GeneID 55364)", "mean z-score": -0.31, "z-score, replicate A": -0.19, "z-score, replicate B": -0.19, "z-score, replicate C": -0.56}
{"gene symbol": "LRRC4 (GeneID 64101)", "mean z-score": -0.75, "z-score, replicate A": -0.94, "z-score, replicate B": -0.76, "z-score, replicate C": -0.54}
{"gene symbol": "LINC00654 (GeneID 149837)", "mean z-score": -1.19, "z-score, replicate A": -1.17, "z-score, replicate B": -1.01, "z-score, replicate C": -1.39}
{"gene symbol": "GTPBP6 (GeneID 8225)", "mean z-score": -0.46, "z-score, replicate A": -0.57, "z-score, replicate B": -0.35, "z-score, replicate C": -0.45}

Not a retest: 2 of the entries above.
{"gene symbol": "LRRD1 (GeneID 401387)", "mean z-score": -0.58, "z-score, replicate A": -0.49, "z-score, replicate C": -0.68}
{"gene symbol": "IMPACT (GeneID 55364)", "mean z-score": -0.31, "z-score, replicate A": -0.19, "z-score, replicate B": -0.19, "z-score, replicate C": -0.56}

More reagents follow.
{"gene symbol": "LINC01343 (GeneID 339442)", "mean z-score": -0.63, "z-score, replicate A": -0.96, "z-score, replicate B": -0.56, "z-score, replicate C": -0.37}
{"gene symbol": "CPOX (GeneID 1371)", "mean z-score": 0.61, "z-score, replicate A": 0.43, "z-score, replicate B": 0.67, "z-score, replicate C": 0.73}
{"gene symbol": "SETBP1 (GeneID 26040)", "mean z-score": 0.82, "z-score, replicate A": 0.76, "z-score, replicate B": 1.08, "z-score, replicate C": 0.61}
{"gene symbol": "CCL15 (GeneID 6359)", "mean z-score": 1.28, "z-score, replicate A": 1.37, "z-score, replicate B": 1.38, "z-score, replicate C": 1.09}
{"gene symbol": "KNDC1 (GeneID 85442)", "mean z-score": -0.71, "z-score, replicate A": -0.35, "z-score, replicate B": -0.69, "z-score, replicate C": -1.08}
{"gene symbol": "GALNT12 (GeneID 79695)", "mean z-score": -0.24, "z-score, replicate A": -0.58, "z-score, replicate B": -0.42, "z-score, replicate C": 0.29}
